Marks after values point to notes of the source that are not given here.
What was measured:
[1] = tested on: oseltamivir-resistant K/2785 virus; test: monotherapy of mice after lethal challenge (survival, MDD); assay type: in vivo, DBA/2 mice; details: twice a day for five days from 4 hpi, 2 MLD50
[2] = tested on: oseltamivir-resistant K/2785 virus; test: combination therapy of mice after lethal challenge (survival, MDD, synergism); assay type: in vivo, DBA/2 mice; details: five days from 4 hpi

## CCC(CC)[C@H](NC(C)=O)[C@@H]1[C@H](O)[C@@H](C(=O)O)C[C@H]1NC(=N)N
[1]; peramivir 22.5 mg/kg/day i.m.
  % survival: 0/7 (0.0%)
[1]; peramivir 45 mg/kg/day i.m.
  % survival: 1/7 (14.3%)
[1]; peramivir 90 mg/kg/day i.m.
  % survival: 5/7 (71.4%)*
[2]; peramivir 25 mg/kg/day i.m. alone
  % survival: 0/10 (00.0%)
[2]; peramivir 25 mg/kg/day i.m. alone, listed as peramivir
  % survival: 0%
[2]; peramivir 50 mg/kg/day i.m. alone
  % survival: 2/10 (20.0%)
[2]; peramivir 50 mg/kg/day i.m. alone, listed as peramivir
  % survival: 20%
[2]; peramivir 100 mg/kg/day i.m. alone
  % survival: 5/10 (50.0%)*
[2]; peramivir 100 mg/kg/day i.m. alone, listed as peramivir
  % survival: 50%

From publication PMC4081560 (PLoS ONE, 2014)
